Earlier results on 1 substance are cited in patent US20240026314A1, “POLYPEPTIDES FOR USE IN THE SYNTHESIS OF BIOACTIVE PHENOLIC COMPOUNDS” (priority 2020, published 2024).

Series [1] deals with sarcoma S-180. The settings on record: oral administration; mice with sarcoma S-180 (Mishima et al 2005); cited from earlier work.
In series [2] the test system is colon cancer cell line SW480. The settings on record: SW480 (Akao et al 2008); cited from earlier work.
Series [3] deals with human leukemia cell line HL60. The settings on record: HL60 (Akao et al 2008); cited from earlier work.

As to baccharin, the tumor growth entry in series [1] is on record as “significant reduction in tumor growth”. Further, the apoptotic events entry in series [2] and in series [3] was “induce apoptotic events” each time.
